Measured values from US8816122B2 (The Board of Trustees of the Leland Stanford Junior …, priority 2009, dated 2014).

Tested on: U1 promonocytic cells containing two integrated HIV proviruses
Assay: Viral activation of U1 promonocytic cells, HIV p24 ELISA of supernatant
Assay type: cell-based

Compound: CCC/C=C/C=C/C(=O)O[C@H]1/C(=C/C(=O)OC)C[C@H]2C[C@H]([C@@H](C)O)OC(=O)C[C@H](O)C[C@@H]3C[C@H](OC(C)=O)C(C)(C)[C@](O)(C[C@@H]4C/C(=C/C(=O)OC)C[C@H](/C=C/C(C)(C)[C@]1(O)O2)O4)O3 [Bryostatin 1, reference compound]
- Concentration at Maximum p24 Level: 1 nM
- Minimum Concentration for Viral Expression (measured by p24 levels): 1 nM
